Consider two compounds from paper PMC8158687, “Xanthones Active against Multidrug Resistance and Virulence Mechanisms of Bacteria” (Antibiotics, 2021).

The assay concerns SE03 (acrA gene-inactivated Salmonella enterica serovar Typhimurium SL1344). The assay is described as follows: Efflux pump inhibition assay (real-time ethidium bromide accumulation). The assay is classed as cell-based. To be noted: compound 50 µM, EB 1 µg/mL, minute 60. The protocol:
Salmonella enterica serovar Typhimurium SE03, was used as a Gram-negative bacterium. This strain has a deletion of the acrA gene, which was predicted with the least affinity for the compounds. The aim of these studies was to perform a first screening of these compounds and their ability to modulate the efflux of EB. […] The relative fluorescence index (RFI) was calculated based on the means of relative fluorescence units, depicted in Table 2.
Compounds 1–20 were evaluated for their ability to inhibit efflux pumps in SE03 and S. aureus 272123 strains, through the real-time fluorimetry, monitoring the intracellular accumulation of EB, an efflux pump substrate. This was determined by the automated method using a CLARIOstar Plus plate reader (BMG Labtech, Ortenberg, Germany). Reserpine and CCCP were applied at 25 µM as positive controls, and the solvent DMSO was applied at 1% v/v. The bacterial strains were incubated in an appropriate culture media (TSB—S. aureus 272123; LB-B—SE03) at 37 °C until they reached an optical density (OD) between 0.4 and 0.6 at λ = 600 nm. The culture was centrifuged at 13,000× g for 3 min, and the pellet washed and resuspended with PBS. […] The plates were placed into the CLARIOstar plate reader, and the fluorescence was monitored at excitation and emission wavelengths of 530 nm and 600 nm every minute for one hour on a real-time basis. […]

In the case of `COc1cccc2oc3ccccc3c(=O)c12` [Compound 11], the “RFI ± SD (relative fluorescence index)” value is 0.28 ± 0.09 ^6.

Consider `O=c1c2ccccc2oc2cc(O)c(O)cc12` [Compound 2], for which the “RFI ± SD (relative fluorescence index)” value is −0.57 ± 0.02 ^7.
